# Measurements published in BindingDB's records for 9111301 (Institute of Cancer Research, 1997).
# The chains behind the UniProt entries cited, without tags or fusion partners. Residues count along the entry.
# UniProt Q8X6S1, 1-240: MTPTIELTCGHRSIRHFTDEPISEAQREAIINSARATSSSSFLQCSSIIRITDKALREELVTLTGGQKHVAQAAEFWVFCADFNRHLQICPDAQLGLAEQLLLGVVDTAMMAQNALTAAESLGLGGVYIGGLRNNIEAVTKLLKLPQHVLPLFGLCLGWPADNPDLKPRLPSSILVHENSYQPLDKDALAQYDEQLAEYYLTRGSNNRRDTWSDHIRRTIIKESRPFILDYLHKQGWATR
# Biological target: Nitroreductase NfsA (Escherichia coli O157:H7, UniProt Q8X6S1)
# Assay: Cytotoxicity in T79-A3 (NR-positive) cell lines
smiles,measurement,value
O=[N+]([O-])c1cnc(N(CCCl)CCCl)s1,IC50,207 µM
